Experimental data published in article PMC12360793 (2025).

Target: PnNL2018B S1-hFc (PnNL2018B (bat MERSr-CoV sampled in …))
Assay: BLI

B1: m46 (domain or fragment)
chain: QSLTTEEKAREFLDKFNSEAENWSHESALASWDYNTNINDKNAQKMNEADSKWSAFYKEHSKLAQGFPLQEIQNSTIKLQLQILQQNGSSVLTAEKSKRLSTILTTMSTIYSTGKVCNPNNPQQCFTLSGLEDIMEKSKDYHQRLWIWEGWRSEVGKQLRPLYEEYVALKNEMARGNNYKDYGDYWRGDYETEGGDGYNYSRNHLIEDVDRIFLEIKPLYEQLHAYVRAKLMNAYPSRISPTGCLPAHLLGDMWGRFWTNLYNLTVPFEKKQNIDVTDTMKKQSWDAEKIFKEAEKFYLSVGLHNMTPEFWNNSMLTEPSDGRQVVCHPTAWDLGKNDFRIKMCTKVTMDDFLTAHHEMGHIQYDMAYAKQPYLLRNGANEGFHEAVGEIMSLSAATPKHLKDLGLLAQNYPEDYETEINFLLKQALNIVGTLPFTYMLEKWRWMVFEGKIPKEQWMEKWWEMKREIVGVVEPLPHDETYCDPASLFHVANDYSFIRYFTRTILEFQFQEALCQIANHTGPLHKCDISNSTEAGKQLKNMLELGKSKPWTFALEQIARTKEMDAKPLLNYFKPLFSWLKELNGNSVGWSADWSPYSEQSIKVRISLKSALGEKAYEWNDNEMYLFRSSVAYAMRVYFLKVKNETIPFRAEDVWVSDEKIRVSFKFFVTSPTNVSDIIPRSEVEDAIRMSRGRINDAFRLDDKTLEFLGIQPTLGPPYQPPVT
B1 gave a koff of 0.0019 s⁻¹.
